Anti-infective test results gathered from many reports (values: NIAID ChemDB through PubChem).

Common to all: whole-cell or culture tests; agent: Mycobacterium tuberculosis

Lines come from different laboratories, so protocols vary. Inhibition is in % at the dose shown (toxicity tests: loss of growth or viability). An empty or dashed field is not shown. MIC50, MIC90 and the like: level of inhibition, or share of isolates inhibited. ECn: concentration that inhibits the pathogen or its effect by n%. MIC bound comes from a single tested concentration.

smiles | method | tested at | cells | read-out | strain | value
O=C1c2scnc2-c2nccc3c2c1nc1ccccc13 | resazurin | - | - | MIC bound | H37Rv | <6.25 µg/mL
COc1ccc2c(c1)C(=O)C(c1ccc(Cl)c(C(F)(F)F)c1)=[N+]2[O-] | MTT | - | - | MIC | H37Rv | 12.5 µM
COCNC(=S)c1ccc(C(N)=O)nc1C(=O)NC(C)(C)C | resazurin | - | - | MIC bound | H37Rv | >6.25 µg/mL
O=C(Nc1cccc(N2CCSCC2)c1)c1ccc(Cl)cc1 | - | - | - | MIC | 103471 | 8 µg/mL
CC(=O)N[C@H]1CN(c2ccc(N3C=NN(C4=NC(=O)CS4)CC3)c(F)c2)C(=O)O1 | resazurin | - | - | MIC90 | 20 clinical isolates | 250 µg/mL
CCc1ccc(-n2cc(CSC3c4ccccc4-c4ccccc43)nn2)cc1 | broth dilution | - | - | MIC99 | H37Rv | 261 µM
Cc1cn([C@@H]2O[C@H](CO)[C@@H](Br)[C@@H]2O)c(=O)[nH]c1=O | - | - | - | EC50 | H37Ra | 100 µg/mL
O=C1C(c2ccc(Oc3ccccc3)cc2)=[N+]([O-])c2ccccc21 | MTT | - | - | EC50 | H37Rv | 2.7 µM
CCOP(=O)(Nc1ccc(C(=O)OC)c(S(=O)(=O)NC(=O)Nc2nccc(C)n2)c1)OCC | - | - | - | MIC | H37Rv | >80 µg/mL
Cc1c(N(C)C)c(=O)n(-c2ccccc2)n1C | BACTEC | 12.8 µg/mL | - | inhibition | H37Rv | 16%
NNC(=O)c1ccncc1 | - | - | - | MIC | Clinical isolate 5 | 0.1 µg/mL
COc1ccc(C(C)c2cc(N=O)c(OC)cc2O)cc1 | BACTEC | - | - | MIC bound | H37Rv | >12.5 µg/mL
Clc1nc(/C=C/c2ccccc2)c2ncn(Cc3ccccc3)c2n1 | BACTEC | - | - | EC50 | H37Rv | <12.5 µg/mL
COC(=O)c1ccc(NS(C)(=O)=O)cc1S(=O)(=O)NC(=O)Nc1nccc(C)n1 | - | - | - | MIC | H37Rv | >80 µg/mL
NCCCC(N)CC(=O)NCC1NC(=O)C(CO)NC(=O)C(NC(=O)CC(N)CCCN)CNC(=O)C(C2CCN=C(N)N2)NC(=O)/C(=C/NC(N)=O)NC1=O | - | - | - | MIC | H37RV (VIM-R) | 5 µg/mL
O=CC(O)C(O)C(O)C(O)C(O)C(O)CO | - | - | - | MIC bound | H37Rv | >6.25 µg/mL
NCCC[C@H](N)CC(=O)N[C@H]1CNC(=O)[C@H]([C@H]2C[C@H](O)NC(N)=N2)NC(=O)/C(=C/NC(N)=O)NC(=O)[C@H](CO)NC(=O)[C@H](CO)NC1=O | - | - | - | MIC | Isolate VIM-R/6 | 10 µg/mL
N/C(=N\NC(CC(=O)c1cccc(Cl)c1)c1ccncc1)c1ccccn1 | - | - | - | MIC | H37Rv | 4 µg/mL
CCCOC(=O)c1ccc(NC(=O)c2ccccc2C(=O)O)cc1O | - | - | - | MIC | H37Rv | >2 µg/mL
Clc1ccc(CNc2cccc(N3CCOCC3)c2)cc1 | - | - | - | MIC | 103471 | >8 µg/mL
CCn1cc(C(=O)O)c(=O)c2cc(F)c(N3CCN(Cn4c(O)c(N=NC(N)=O)c5cc(Br)ccc54)CC3)cc21 | BACTEC | - | - | EC50 | H37Rv | <12.5 µg/mL
CCCCCCCCCCCCCCCCSc1ncnc2ccccc12 | - | - | - | MIC | CNCTC TBC1/47 | 500 µM
Clc1ncnc2c1nc(-c1ccccc1)n2Cc1ccccc1 | BACTEC | - | - | EC50 | H37Rv | >12.5 µg/mL
Cc1ccc2c(c1)nc(-c1ccc(Cl)cc1)c1[nH]ccc12 | visual reading / absorbance | - | - | MIC | H37Rv | 17.1 µM
Clc1cc(Cl)cc(-n2cc(CSC3c4ccccc4-c4ccccc43)nn2)c1 | broth dilution | - | - | MIC99 | Specimen 192 | 118 µM
Cc1ccc(C(=O)CC(N/N=C(\N)c2ccccn2)c2cccnc2)cc1 | - | - | - | MIC | H37Rv | 1 µg/mL
O=C(Nc1cccc(N2CCSCC2)c1)c1ccc(-c2ccccc2)cc1 | - | - | - | MIC | 103471 | >16 µg/mL
NC[C@H]1O[C@H](O[C@H]2[C@H](O)[C@@H](O[C@H]3O[C@H](CO)[C@@H](O)[C@H](N)[C@H]3O)[C@H](N)C[C@@H]2N)[C@H](O)[C@@H](O)[C@@H]1O | - | - | - | MIC | H37Rv | 2 µg/mL
CC(C)C(OC(=O)[C@H](C)NC(=O)C(OC(=O)[C@H](C)NC(=O)OC(C)(C)C)C(C)C)C(=O)O | resazurin | - | - | MIC bound | H37Rv | >6.25 µg/mL
COC1=C(Br)[C@@H](O)[C@]2(C=C1Br)CC(C(=O)NCCCCNC(=O)C1=NO[C@]3(C=C(Br)C(OC)=C(Br)[C@@H]3O)C1)=NO2 | - | - | - | MIC | H37Rv (rifampin-resistant) | 12.5 µg/mL
Cc1nn(-c2nc(-c3ccc(Br)cc3)cs2)c(C)c1C | BACTEC | 12.5 µg/mL | - | inhibition | H37Rv | 0%
c1ccc(-c2ccc(CNc3ccc(-n4ccnc4)cc3)cc2)cc1 | - | - | - | MIC | 103471 | 8 µg/mL
N/C(=N\NC(CC(=O)c1ccc(Cl)cc1)c1ccncc1)c1ccccn1 | - | - | - | MIC | H37Rv | 2 µg/mL
CCC[CH2][Sn]1([CH2]CCC)[O]C(=O)CN=Cc2ccccc2[O]1 | BACTEC | - | - | MIC bound | H37Rv | >12.5 µg/mL
O=C1C(c2ccc(CO)cc2)=[N+]([O-])c2ccccc21 | MTT | - | - | EC50 | H37Rv | 15.4 µM
O=C1OC(=O)C2C3(CC3)CC23CC13 | BACTEC | - | - | MIC bound | H37Rv | >12.5 µg/mL
O=C1C(=S)N(Cc2ccccc2)c2ccccc21 | - | - | - | MIC | CNCTC TBC1/47 | 63 µM
CN1CCN(c2cccc(NCc3ccc(Cl)cc3)c2)CC1 | - | - | - | MIC | 103471 | >16 µg/mL
CC(=O)N[C@H]1CN(c2ccc(N3C=NN(S(N)(=O)=O)CC3)c(F)c2)C(=O)O1 | resazurin | - | - | MIC90 | 20 clinical isolates | 500 µg/mL
N/C(=N\NC(CC(=O)c1ccccc1)c1cccnc1)c1ccccn1 | - | - | - | MIC | H37Rv | 16 µg/mL
O=S(=O)(Cc1cn(-c2ccc(Cl)cc2Cl)nn1)C1c2ccccc2-c2ccccc21 | broth dilution | - | - | MIC99 | H37Rv | >219 µM
Nc1ccc(C(=O)OC2CCCCC2)c(O)c1 | - | - | - | MIC | H37Rv | >20 µg/mL
Cc1ccc(C(=O)CC(N/N=C(\N)c2ccccn2)c2ccccn2)cc1 | - | - | - | MIC | H37Rv | 1 µg/mL
CCCCCCSc1ncnc2ccccc12 | - | - | - | MIC | CNCTC TBC1/47 | 125 µM
O=C1NC(NNC(=O)c2ccncc2)=N/C1=C\c1ccc(Cl)cc1 | - | - | - | MIC | Ethambutol-resistant | 3.13 µg/mL
C=C(OCC)c1nc(Cl)nc2c1ncn2Cc1ccccc1 | BACTEC | - | - | EC50 | H37Rv | <12.5 µg/mL
C=C1C(=O)O[C@@H]2CCN3CC=C(COC(=O)[C@@](C)(O)[C@]4(CO4)[C@@H]1C)[C@H]23 | BACTEC | - | - | MIC bound | H37Rv | >12.5 µg/mL
CC(=O)c1ncnc2c1ncn2Cc1ccccc1 | BACTEC | - | - | EC50 | H37Rv | >12.5 µg/mL
Fc1ccc(-n2cc(CNC3c4ccccc4-c4ccccc43)nn2)cc1 | broth dilution | - | - | MIC99 | H37Rv | 281 µM
CCn1cc(C(=O)O)c(=O)c2cc(F)c(N3CCN(Cn4c(O)c(N=NC(N)=S)c5ccccc54)CC3)cc21 | BACTEC | 12.5 µg/mL | - | inhibition | H37Rv | 98%
COC(=O)NC[C@H]1CN(c2ccc(N3C=NOCC3)c(F)c2)C(=O)O1 | GFP / reporter gene | - | - | MIC | H37Rv | 250 µg/mL
Cc1ccc(-c2n[nH]c(=O)n2-n2c(C)ccc2C)cc1 | - | - | - | MIC | H37Rv | 1.9 µg/mL
COC(=O)NC[C@H]1CN(c2ccc(N3C=NN(C(N)=O)CC3)c(F)c2)C(=O)O1 | resazurin | - | - | MIC90 | 20 clinical isolates | 0.5 µg/mL
Cc1ccccc1OC(=O)c1ccc(N)cc1O | - | - | - | MIC | H37Rv | 0.0313 µg/mL
C(=C\c1ncnc2c1ncn2Cc1ccccc1)/c1ccccc1 | BACTEC | - | - | EC50 | H37Rv | <12.5 µg/mL
Nc1ccc(C(=O)O)c(O)c1 | - | - | - | MIC | Clinical isolate 7 | 2 µg/mL
CCOC(=O)c1c(N)ssc1=S | BACTEC | - | - | MIC bound | H37Rv | >12.5 µg/mL
N/C(=N\NC(CC(=O)c1ccc(Cl)cc1)c1cccnc1)c1ccccn1 | - | - | - | MIC | H37Rv | 1 µg/mL
CC(=O)N[C@H]1CN(c2ccc(N3C=NN(C)CC3)c(F)c2)C(=O)O1 | resazurin | - | - | MIC90 | 20 clinical isolates | 1000 µg/mL
NNC(=O)/C(NC(=O)c1ccccc1)=C(\N)c1ccc(Cl)cc1 | BACTEC | 12.5 µg/mL | - | inhibition | H37Rv | 32%
O=C1C(=S)N(c2ccccc2)c2ccccc21 | - | - | - | MIC | CNCTC TBC1/47 | 16 µM
CO[C@@H]1[C@@H](OC(N)=O)[C@@H](O)[C@H](Oc2ccc3c(O)c(NC(=O)c4ccc(O)c(CC=C(C)C)c4)c(=O)oc3c2C)OC1(C)C | BACTEC | 128 µg/mL | - | inhibition | H37Rv | 100%
CC(C)Sc1ncnc2ccccc12 | - | - | - | MIC | CNCTC TBC1/47 | 125 µM
COC(=O)c1ccc(NC(=O)CCl)cc1S(=O)(=O)NC(=O)Nc1nccc(C)n1 | - | - | - | MIC | H37Rv | >80 µg/mL
CC(C)CSc1ncnc2ccccc12 | - | - | - | MIC | CNCTC TBC1/47 | 125 µM
CCCC1=[N+]([O-])c2ccccc2C1=O | MTT | - | - | EC50 | H37Rv | 39.1 µM
CCC12OC3(CC)C4C(=O)OC1C1(CC)OC4(CC)C3C(=O)OC21 | BACTEC | 12.5 µg/mL | - | inhibition | H37Rv | -2%
CCCCCN1C(=S)C(=O)c2ccccc21 | - | - | - | MIC | CNCTC TBC1/47 | 16 µM
CCN(CC)CCNC(=O)c1nn(C)c(=S)[nH]c1=O | BACTEC | - | - | MIC | H37Rv | ≥12.5 µg/mL
Cc1cccc(C(=O)CC(N/N=C(\N)c2ccccn2)c2ccncc2)c1 | - | - | - | MIC | H37Rv | 8 µg/mL
Cc1ccc(OC(=O)c2ccc(NC(=O)CCC(=O)O)cc2O)cc1 | - | - | - | MIC | H37Rv | 0.5 µg/mL
Fc1ccc(NC(=S)SCc2ccco2)cc1 | BACTEC | 12.5 µg/mL | - | inhibition | H37Rv | 36%
O=C1NC(NNC(=O)c2ccncc2)=N/C1=C\c1cccc(Cl)c1 | resazurin | - | VERO | MIC | H37Rv | 0.8 µg/mL
CCSc1ncnc2ccccc12 | - | - | - | MIC | CNCTC TBC1/47 | 125 µM
COc1ccc2c(c1)C(=O)C(c1ccc(Oc3ccccc3)cc1)=[N+]2[O-] | MTT | - | - | MIC | H37Rv | 6.25 µM
COc1cc([C@H]2c3cc(O)c(OC)cc3C[C@H]3C(=O)OC[C@H]23)ccc1O | BACTEC | 12.5 µg/mL | - | inhibition | H37Rv | 13%
C[C@@H]1[C@@H](NC(=O)c2cc3cc(C(=O)O)ncc3[nH]2)C[C@H]2C[C@@H]1C2(C)C | resazurin | - | - | MIC90 | H37Rv | 2.7 µg/mL
CCOC(=O)N1C2C(c3ccccc3)=NC(C)(C)N2C(c2ccc([N+](=O)[O-])cc2)N1C(=O)OCC | resazurin | 6.25 µg/mL | - | inhibition | H37Rv | 9%
CCn1c(S)c(N=NC(N)=[NH2+])c2ccccc21 | - | - | - | MIC | CNCTC TBC1/47 | 125 µM
Cc1ccnc(NC(=O)NS(=O)(=O)c2cc(C(N)=O)ccc2Br)n1 | - | - | - | MIC | H37Rv | >80 µg/mL
CC1(C)CCC[C@](C)([C@H]2CC[C@]3(C)[C@@H]2[C@H](O)C[C@@H]2[C@@]4(C)CC[C@H](O)C(C)(C)[C@@H]4[C@H](O)C[C@]23C)O1 | BACTEC | 12.5 µg/mL | - | inhibition | H37Rv | 4%
O=C1C(c2ccc(Cl)cc2)=[N+]([O-])c2cc3c(cc21)OCO3 | MTT | - | - | MIC | H37Rv | 50 µM
O=C1NC(NNC(=O)c2ccncc2)=N/C1=C\c1ccccc1Cl | resazurin | 12.5 µg/mL | VERO | inhibition | H37Rv | 99%
CC(C)=CC[C@H](O)C1=CC(=O)c2c(O)ccc(O)c2C1=O | - | - | - | MIC | EMB-R | 12.8 µg/mL
Clc1nc2c(-c3cccs3)ncnc2n1Cc1ccccc1 | BACTEC | - | - | EC50 | H37Rv | >12.5 µg/mL
CCCc1cc(=O)oc2c3c(c4c(c12)OC(C)(C)C=C4)O[C@@H](C)[C@H](C)[C@@H]3O | BACTEC | 12.5 µg/mL | - | inhibition | H37Rv | 99%
CCn1cc(C(=O)O)c(=O)c2cc(F)c(N3CCN(CN4C(=O)C(=O)c5cc(Br)ccc54)CC3)cc21 | BACTEC | 12.5 µg/mL | - | inhibition | H37Rv | 90%

Repeating the final 7 entries:

smiles	method	tested at	cells	read-out	strain	value
CC1(C)CCC[C@](C)([C@H]2CC[C@]3(C)[C@@H]2[C@H](O)C[C@@H]2[C@@]4(C)CC[C@H](O)C(C)(C)[C@@H]4[C@H](O)C[C@]23C)O1	BACTEC	12.5 µg/mL	-	inhibition	H37Rv	4%
O=C1C(c2ccc(Cl)cc2)=[N+]([O-])c2cc3c(cc21)OCO3	MTT	-	-	MIC	H37Rv	50 µM
O=C1NC(NNC(=O)c2ccncc2)=N/C1=C\c1ccccc1Cl	resazurin	12.5 µg/mL	VERO	inhibition	H37Rv	99%
CC(C)=CC[C@H](O)C1=CC(=O)c2c(O)ccc(O)c2C1=O	-	-	-	MIC	EMB-R	12.8 µg/mL
Clc1nc2c(-c3cccs3)ncnc2n1Cc1ccccc1	BACTEC	-	-	EC50	H37Rv	>12.5 µg/mL
CCCc1cc(=O)oc2c3c(c4c(c12)OC(C)(C)C=C4)O[C@@H](C)[C@H](C)[C@@H]3O	BACTEC	12.5 µg/mL	-	inhibition	H37Rv	99%
CCn1cc(C(=O)O)c(=O)c2cc(F)c(N3CCN(CN4C(=O)C(=O)c5cc(Br)ccc54)CC3)cc21	BACTEC	12.5 µg/mL	-	inhibition	H37Rv	90%